Reference: publication PMC4316792, “The dehydrogenase region of the NADPH oxidase component Nox2 acts as a protein disulfide isomerase (PDI) resembling PDIA3 with a role in the binding of the activator protein p67^phox” (Frontiers in Chemistry, 2015)

Tests used:
NusA-Nox2(357–570) = test: Inhibition of PDI reductase activity of NusA-Nox2(357–570), DE-GSSG reduction; conditions: PAO 50 μM, NusA-Nox2(357–570) 2 μM, DTT 12.5 μM; one characteristic experiment; 40,306 without PAO
[1] = target: NADPH oxidase (macrophage membrane liposomes, cytochrome b558) (Cavia porcellus, UniProt H0UXC6)
NADPH oxidase = conditions: preincubated with the membrane fraction; reversed by reducing agents; ref Le Cabec and Maridonneau-Parini, [1995]; cited from earlier work
[2] = test system: NADPH oxidase in intact phagocytes / neutrophils; conditions: ref Le Cabec and Maridonneau-Parini, [1995]; cited from earlier work
PDI = conditions: ref Gallina et al., [2002]; Raturi et al., [2005]; cited from earlier work

## O=[As]c1ccccc1 (stereo not shown)
NusA-Nox2(357–570)
  Vmax of NusA-Nox2(357–570) in the presence of inhibitor (Figure 6D): 5,717 milli relative fluorescence units per min
[1]; 1.56–200 μM (Figure 14A)
  inhibition of oxidase activation, in words: significant inhibition
[1]; preliminary experiments, results not shown
  inhibition of oxidase activation supported by p67phox with cysteines mutated to serines: inhibited
[1]; read-out: IC50, NADPH oxidase activation, membrane liposomes preincubated with inhibitor 5 min, p67^phox(1–212) 300 nM, prenylated Rac1 Q61L 300 nM, 3 experiments (Figure 14)
  IC50: 49 µM
NADPH oxidase
  inhibition of oxidase activation in vitro: inhibit oxidase activation
[2]
  inhibition of oxidase activation in neutrophils: inhibit oxidase activation
PDI
  PDI inhibition: PDI inhibitor
